According to patent US8435939B2, “Polypeptide anti-HIV agent containing the same” (priority 2000, dated 2013):
Entries after “also recorded” stand apart in the source; their conditions may differ.

Experiments:
Type in all cases: cell-based
HIV-1 (IIIB) strain = assay: Anti-HIV activity: inhibition of MT-4 cell death by HIV infection (MTT method)
Experimental: (§1) HIV-1 (IIIB) strain obtained from MOLT/HIV-1 (IIIB) cell previously infected by HIV-1 was used. The polypeptide of the present invention was added to MT-4 CD4^+ T cells infected by HIV in various kinds of concentrations, and a number of living cells after culturing at 37° C. for 5 days was determined by using a 3′-(4,5-dimethylthiazol-2-yl)-2,5-diphenyltetrazolinium bromide (MTT) method. Anti-HIV activity is shown by a concentration (EC50 value), where MT-4 cell death by HIV infection is inhibited by 50%. Cytotoxicity of the peptide according to the present invention was shown by a 50% survival concentration (Test I: CC50 value) by culturing virus-uninfected MT-4 cells with the polypeptide according to the present invention in various concentrations, and determining a number of living cells by the MTT method. Moreover, a number of living cells of human peripheral blood mononuclear cells (monocyte) (PBMC) was determined by trypan blue dyeing method, and shown by a 50% survival concentration (Test II: CC50 value). Respective ratios of the CC50 value and the EC50 value were shown as a selective index (SI). Obtained values were summarized in Table 3 using the conventionally known polypeptides T134 and T140, and an anti-HIV compound: 3′-azido-2′,3′-dideoxythymidine (AZT) used as a medicine as a control anti-HIV agent.

[1] = Cytotoxicity Test I: virus-uninfected MT-4 cells, MTT method; details: virus-uninfected MT-4 cells, MTT method; read-out: CC50 (Test I), 50% survival concentration
Experimental: as §1

[2] = test system: virus-uninfected MT-4 cells; assay: as above
Experimental: as §1

## N=C(N)NCCC[C@H](NC(=O)[C@@H]1CSSC[C@H](NC(=O)[C@H](Cc2ccc3ccccc3c2)NC(=O)[C@H](CCCNC(=N)N)NC(=O)[C@@H](N)CCCNC(=N)N)C(=O)N[C@@H](Cc2ccc(O)cc2)C(=O)N[C@@H](CCCNC(=N)N)C(=O)N[C@@H](CCCCN)C(=O)N[C@H](CCCNC(N)=O)C(=O)N2CCC[C@H]2C(=O)N[C@@H](Cc2ccc(O)cc2)C(=O)N[C@@H](CCCNC(N)=O)C(=O)N[C@@H](CCCNC(N)=O)C(=O)N1)C(N)=O [TC14020]
HIV-1 (IIIB) strain; MT-4 CD4+ T cells infected by HIV-1 (IIIB), 37° C., 5 days, MTT, average of at least three measurements, read-out: EC50 (concentration where MT-4 cell death by HIV infection is inhibited by 50%)
  EC50: 2.7 nM
HIV-1 (IIIB) strain; conclusion drawn from Table 3
  anti-HIV activity in words, compared with T140: substantially the same anti-HIV activity as that of the conventionally known T140; also recorded: higher anti-HIV activity
[1]
  CC50: > 100000 nM
[2]; conclusion drawn from Table 3
  cytotoxicity in words, compared with conventional T134/T140: cytotoxicity is markedly lowered
[2]; selective index, MT-4 CC50 over anti-HIV EC50
  SI: CC50 (Test I)/EC50: >37000
